System: HIV-1 IIIB strain
Test: Anti-HIV activity: protection of HIV-infected MT-4 cells from virus-induced cell lesions
Type: cell-based
Method: Anti-virus activity of cells in vitro was determined by Rega Institute for Medical of […] Katholleke University, consisting mainly: inhibitory activity towards HIV-infected MT-4 cells and cell toxicity. The method is described below: exert the compound on the HIV-infected ME-4 cells, and determine the protection of the drug on the cell lesions induced by HIV at varied HIV-infection intervals, calculate the half effective concentration IC50, the required concentration that protect 50% of cells from cell lesions induced by HIV. Toxicity determination is carried out in parallel with anti-HIV activity experiments, also in the cultured MT-4 cells, determine the CC50, the concentration that leads 50% of uninfected cells to cell lesions, and calculate the selectivity index SI=CC50/IC50 with the MTT method.
Anti-HIV activity of various compounds is monitored by the inhibitory efficiency of drugs on the cell lesions induced by HIV. Carry out cell culture with MT-4 cells. The adopted virus strains are HIV-1 IIIB strain and drug-resistant viral strain of […].
The detailed operation is as follows: the compound is dissolved with DMSO or water and diluted with phosphate buffer saline, 3×10^5 MT-4 cells are cultured with 100 μL various concentrations of compounds for 1 h, then 100 μL suitable virus dilution is added to the compound, and the cells are cultured at 37° C. for 1 h. After being washed for 3 times, the cells are suspended again in the culture media containing or not compounds individually. Subsequently, the cells are transferred to the atmosphere containing 5% CO2 and cultured for 7 days at 37° C., and culture media containing or not compounds are used to replace or supplement the culture solution on the third day after infection. Kinds of culture conditions should be duplicated. The cell lesions caused by virus are monitored with reverse light microscopy everyday. Typically, the virus dilution applied in the present experiments generally cause cell lesion on the fifth day after infection. […] It should be emphasized that, when the compound is poorly water-soluble and can only be dissolved in DMSO, the ratio of DMSO to water is generally below 10% (the final concentration of DMSO in MT-4 cell culture media is smaller than 2%). Because DMSO can influence the anti-virus activity of the tested compounds, blank tests on the solution containing the same concentration of DMSO should be conducted in parallel. Additionally, the final concentration of DMSO is far below the concentration required to influence the replication of HIV-1 in T cells.

Cc1cnc(Nc2ccc(C#N)cc2)nc1Oc1cccc2cccnc12 [Compound 5]
SI (Selectivity index, the ratio of CC50/IC50) (Table 1): 3432

Cc1c(Cl)nc(Nc2ccc(C#N)cc2)nc1Oc1cccc2cccnc12 [Compound 6]
SI (Selectivity index, the ratio of CC50/IC50) (Table 1): 1740

CNc1nc(Nc2ccc(C#N)cc2)nc(Oc2cccc3cccnc23)c1C [Compound 7]
SI (Selectivity index, the ratio of CC50/IC50) (Table 1): 2312

COc1nc(Nc2ccc(C#N)cc2)nc(Oc2cccc3cccnc23)c1C [Compound 8]
SI (Selectivity index, the ratio of CC50/IC50) (Table 1): 1787

CC(C)c1c(Cl)nc(Nc2ccc(C#N)cc2)nc1Oc1ccc2cc(C#N)ccc2c1 [Compound 9]
SI (Selectivity index, the ratio of CC50/IC50) (Table 1): 8711

Cc1c(Oc2ccnc(Nc3ccc(C#N)cc3)n2)ccc2ccccc12 [Compound 10]
SI (Selectivity index, the ratio of CC50/IC50) (Table 1): 32981

Cc1cc2ccccc2cc1Oc1ccnc(Nc2ccc(C#N)cc2)n1 [Compound 11]
SI (Selectivity index, the ratio of CC50/IC50) (Table 1): 30941

Cc1cc2ccccc2c(C)c1Oc1ccnc(Nc2ccc(C#N)cc2)n1 [Compound 12]
SI (Selectivity index, the ratio of CC50/IC50) (Table 1): 76436

N#Cc1ccc(Nc2nccc(Oc3ccc4cc(Br)ccc4c3Br)n2)cc1 [Compound 13]
SI (Selectivity index, the ratio of CC50/IC50) (Table 1): 11099

N#Cc1ccc(Nc2nccc(Oc3ccc4cc(C#N)ccc4c3)n2)cc1 [Compound 14]
SI (Selectivity index, the ratio of CC50/IC50) (Table 1): 20548

N#Cc1ccc(Nc2nccc(Oc3ccc4cc(C#N)ccc4c3Br)n2)cc1 [Compound 15]
SI (Selectivity index, the ratio of CC50/IC50) (Table 1): 181247

N#Cc1ccc(Nc2nccc(Oc3cc4ccc(C#N)cc4cc3Br)n2)cc1 [Compound 16]
SI (Selectivity index, the ratio of CC50/IC50) (Table 1): 50357

CNc1nc(Nc2ccc(C#N)cc2)nc(Oc2ccc3ccccc3c2Br)c1C [Compound 17]
SI (Selectivity index, the ratio of CC50/IC50) (Table 1): 11494

CCc1c(NC)nc(Nc2ccc(C#N)cc2)nc1Oc1ccc2cc(C#N)ccc2c1Br [Compound 18]
SI (Selectivity index, the ratio of CC50/IC50) (Table 1): 49020

CNc1nc(Nc2ccc(C#N)cc2)nc(Oc2ccc3cc(C#N)ccc3c2)c1C(C)C [Compound 19]
SI (Selectivity index, the ratio of CC50/IC50) (Table 1): 34868

Cc1cc(C#N)ccc1Oc1nc(Nc2ccc(C#N)cc2)nc2ccccc12 [Compound 33]
SI (Selectivity index, the ratio of CC50/IC50) (Table 3): >11893

N#Cc1ccc(Nc2nc(Oc3c(Br)cc(Br)cc3Br)c3ccccc3n2)cc1 [Compound 34]
SI (Selectivity index, the ratio of CC50/IC50) (Table 3): 3087

Cc1cc(Br)c(Oc2nc(Nc3ccc(C#N)cc3)nc3ccccc23)c(Br)c1 [Compound 35]
SI (Selectivity index, the ratio of CC50/IC50) (Table 3): 1563

Cc1cc(C)c(Oc2nc(Nc3ccc(C#N)cc3)nc3ccccc23)c(C)c1 [Compound 36]
SI (Selectivity index, the ratio of CC50/IC50) (Table 3): >1484

N#Cc1ccc(Nc2nc(Oc3ccc(Cl)cc3Cl)c3ccccc3n2)cc1 [Compound 37]
SI (Selectivity index, the ratio of CC50/IC50) (Table 3): 4068

N#Cc1ccc(Nc2nc(Oc3ccc(F)cc3)c3ccccc3n2)cc1 [Compound 38]
SI (Selectivity index, the ratio of CC50/IC50) (Table 3): 1987

N#Cc1ccc(Nc2nc(Oc3ccccc3Cl)c3ccccc3n2)cc1 [Compound 39]
SI (Selectivity index, the ratio of CC50/IC50) (Table 3): 6018

N#Cc1ccc(Nc2nc(Oc3ccc(Cl)cc3)c3ccccc3n2)cc1 [Compound 40]
SI (Selectivity index, the ratio of CC50/IC50) (Table 3): >2369

COc1cc(C#N)cc(OC)c1Oc1nc(Nc2ccc(C#N)cc2)nc2ccccc12 [Compound 41]
SI (Selectivity index, the ratio of CC50/IC50) (Table 3): >42311

N#Cc1ccc(Nc2nc(Oc3c(Cl)cc(Cl)cc3Cl)c3ccccc3n2)cc1 [Compound 42]
SI (Selectivity index, the ratio of CC50/IC50) (Table 3): 69833

Cc1cccc(C)c1Oc1nc(Nc2ccc(C#N)cc2)nc2ccccc12 [Compound 43]
SI (Selectivity index, the ratio of CC50/IC50) (Table 3): >13902

N#Cc1ccc(Nc2nc(Sc3ccccc3)c3ccccc3n2)cc1 [Compound 44]
SI (Selectivity index, the ratio of CC50/IC50) (Table 3): 657

Cc1cc(C#N)cc(C)c1Oc1nc(Nc2ccc(C#N)cc2)nc2ccccc12 [Compound 45]
SI (Selectivity index, the ratio of CC50/IC50) (Table 3): >47832

CCOc1cc(C#N)cc(OCC)c1Oc1nc(Nc2ccc(C#N)cc2)nc2ccccc12 [Compound 46]
SI (Selectivity index, the ratio of CC50/IC50) (Table 3): >34239

CCCOc1cc(C#N)cc(OCC)c1Oc1nc(Nc2ccc(C#N)cc2)nc2ccccc12 [Compound 47]
SI (Selectivity index, the ratio of CC50/IC50) (Table 3): >20842

COc1cc(C#N)cc(Cl)c1Oc1nc(Nc2ccc(C#N)cc2)nc2ccccc12 [Compound 48]
SI (Selectivity index, the ratio of CC50/IC50) (Table 3): >30899

CCOc1cc(C#N)cc(Cl)c1Oc1nc(Nc2ccc(C#N)cc2)nc2ccccc12 [Compound 49]
SI (Selectivity index, the ratio of CC50/IC50) (Table 3): >10692

COc1cc(C#N)cc(OC(C)C)c1Oc1nc(Nc2ccc(C#N)cc2)nc2ccccc12 [Compound 50]
SI (Selectivity index, the ratio of CC50/IC50) (Table 3): >9823

N#Cc1ccc(Nc2nc(S(=O)(=O)c3ccccc3)c3ccccc3n2)cc1 [Compound 51]
SI (Selectivity index, the ratio of CC50/IC50) (Table 3): >365

CCOc1cc(C#N)cc(OC)c1Oc1nc(Nc2ccc(C#N)cc2)nc2ccccc12 [Compound 52]
SI (Selectivity index, the ratio of CC50/IC50) (Table 3): >50129

Cc1cc(C)c(Oc2nc(Nc3ccc(C#N)cc3)nc3ccc(Cl)cc23)c(C)c1 [Compound 54]
SI (Selectivity index, the ratio of CC50/IC50) (Table 3): 81672

Cc1cn([C@H]2C[C@H](N=[N+]=[N-])[C@@H](CO)O2)c(=O)[nH]c1=O [DDN/AZT, reference compound]
SI (Selectivity index, the ratio of CC50/IC50) (Table 3): >18094
